From PMC10107996, “Release of hepatitis B virions is positively regulated by glucose‐regulated protein 78 through direct interaction with preS1” (Journal of Medical Virology, 2022) come the findings set out here.

The target in the assay is T1, purified recombinant GRP78 protein (human).
T1 construct: source: recombinant, purified
The assay can be described thus: MST; purified truncated GST-preS1 proteins with GRP78. Conditions: both partners purified.

B1: GST-preS1-p1 ([…]) (domain or fragment)
chain: not shown
modifications: GST carrier omitted. Genotype not printed: a 119-residue preS1 and the DPAFGANS peptide exclude the genotype D candidate (108-residue preS1); genotype C assumed. Check residues come from the printed …
As to B1, the equilibrium dissociation constant (Kd) (as a rule, the concentration at which binding is half-saturated) was determined as 899 nM.
